Experimental data: PubChem BioAssay AID504761 (Drosophila RNAi Screening Center, 2011)
Purpose: 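Genome-wide fly cell screen for genes dengue virus requires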 (primary screen). System: D.Mel-2 cells from Drosophila. Knock-down reagent: long dsRNA against Drosophila genes. Conditions: infection with dengue virus type 2; dose and infection time not stated. Detection: 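Cells stained for dengue envelope protein and imaged; percent of infected cells per well on duplicate plates, ranked by infection, with stained nuclei counted for cell number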. Reading the numbers: infection score: higher = more virus-infected cells; cell count: higher = more cells in the well. Hit rule: 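Low infection ranks in the two replicates (chance level up to 0.065) followed by a retest with a 1.5-fold or larger significant decrease, p below 0.05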. Meaning of the calls: active = confirmed: knock-down lowers infection; inactive = not picked or not confirmed.
In all, the deposit lists about 22,000 reagents; shown is an unselected part of those with a known target gene and a result. Over the whole deposit, 116 (0.52%) are marked active. 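Calls depend on retest data that are not deposited; infection was ranked per plate without normalising between plates; the unit of the infection score is not given.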 Raw values are not corrected between plates. Reagent sequences are not shown. The record does not give: the amount of reagent, the time to read-out.

gene knocked down | dsRNA | infection score, replicate 1 | infection score, replicate 2 | cell count, replicate 1 | cell count, replicate 2 | activity call
Golgin245 (GeneID 37702) | DRSC04374 | 24.3 | 13.9 | 6352 | 6076 | inactive
Golgin245 (GeneID 37702) | DRSC22012 | 9.47 | 1.28 | 5996 | 6971 | inactive
Golgin245 (GeneID 37702) | DRSC30015 | 15.4 | 9.36 | 6428 | 6324 | inactive
PCID2 (GeneID 39306) | DRSC10822 | 12.3 | 0.41 | 5604 | 241 | inactive
PCID2 (GeneID 39306) | DRSC29290 | 15.1 | 4.61 | 5454 | 802 | inactive
Chs2 (GeneID 40442) | DRSC11830 | 1.47 | 7.02 | 6807 | 6797 | inactive
Nepl5 (GeneID 33892) | DRSC03241 | 4.64 | 2 | 5841 | 6502 | inactive
Nepl5 (GeneID 33892) | DRSC29153 | 11.2 | – | 5429 | 329 | inactive
PPP1R15 (GeneID 37820) | DRSC04422 | 10.8 | 8.04 | 5312 | 1094 | inactive
PPP1R15 (GeneID 37820) | DRSC26013 | 6.7 | 4.28 | 4703 | 5824 | inactive
ORMDL (GeneID 40404) | DRSC11737 | 6.83 | 18 | 6095 | 5749 | inactive
ORMDL (GeneID 40404) | DRSC27778 | 18.9 | 9.56 | 6138 | 6611 | inactive
CG10761 (GeneID 31749) | DRSC17753 | – | 26.1 | 350 | 4474 | inactive
CG10761 (GeneID 31749) | DRSC27665 | 18.3 | 10.6 | 5172 | 5245 | inactive
Nrx-1 (GeneID 42646) | DRSC16184 | 2.84 | 1.15 | 5951 | 6457 | inactive

4 of these entries in another layout:
Golgin245 (GeneID 37702) [DRSC04374]
- infection score, replicate 1: 24.3
- infection score, replicate 2: 13.9
- cell count, replicate 1: 6352
- cell count, replicate 2: 6076
- activity call: inactive

Golgin245 (GeneID 37702) [DRSC22012]
- infection score, replicate 1: 9.47
- infection score, replicate 2: 1.28
- cell count, replicate 1: 5996
- cell count, replicate 2: 6971
- activity call: inactive

Golgin245 (GeneID 37702) [DRSC30015]
- infection score, replicate 1: 15.4
- infection score, replicate 2: 9.36
- cell count, replicate 1: 6428
- cell count, replicate 2: 6324
- activity call: inactive

PCID2 (GeneID 39306) [DRSC10822]
- infection score, replicate 1: 12.3
- infection score, replicate 2: 0.41
- cell count, replicate 1: 5604
- cell count, replicate 2: 241
- activity call: inactive

Additional records follow.
gene knocked down | dsRNA | infection score, replicate 1 | infection score, replicate 2 | cell count, replicate 1 | cell count, replicate 2 | activity call
Orc4 (GeneID 37970) | DRSC04634 | 11.9 | 37.4 | 6671 | 4504 | inactive
Orc4 (GeneID 37970) | DRSC29134 | – | – | 346 | 250 | inactive
wb (GeneID 43946) | DRSC01375 | 2.88 | 2.88 | 4832 | 4335 | inactive
wb (GeneID 43946) | DRSC03634 | – | 11.3 | 472 | 1101 | inactive
wb (GeneID 43946) | DRSC23003 | 2.15 | 1.22 | 5714 | 6313 | inactive
CG13314 (GeneID 39030) | DRSC09985 | 2.9 | 2.92 | 6077 | 6032 | inactive
alien (GeneID 34225) | DRSC03482 | 20.8 | 18.1 | 4553 | 4956 | inactive
Jhe (GeneID 36780) | DRSC07174 | 10.2 | 9.73 | 5984 | 6987 | inactive
Jhe (GeneID 36780) | DRSC29206 | 14.3 | – | 3555 | 264 | inactive
Jhbp4 (GeneID 41948) | DRSC14222 | 2.2 | 10.3 | 6625 | 6306 | inactive
CG15035 (GeneID 31673) | DRSC17967 | 11.2 | 20.3 | 5592 | 2662 | inactive
ND-B18 (GeneID 32434) | DRSC19947 | 0.61 | 3.91 | 6091 | 5929 | inactive
ND-B18 (GeneID 32434) | DRSC27676 | 6.58 | 3.77 | 6305 | 6554 | inactive
PH4alphaNE3 (GeneID 326114) | DRSC16541 | 3.38 | 6.39 | 6188 | 6762 | inactive
PH4alphaNE3 (GeneID 326114) | DRSC24337 | 2.59 | 2.02 | 6107 | 6574 | inactive
CG13862 (GeneID 42610) | DRSC14712 | 13.9 | 2.63 | 4018 | 7044 | inactive
Ack-like (GeneID 36442) | DRSC07500 | 5.03 | 1.38 | 6316 | 6462 | inactive
ouib (GeneID 41039) | DRSC14376 | 1.87 | 12 | 6096 | 5627 | inactive
CG32204 (GeneID 317913) | DRSC09574 | 0.85 | 1.53 | 5739 | 5943 | inactive
CG32204 (GeneID 317913) | DRSC23663 | 7.77 | 7.59 | 6191 | 5537 | inactive
CG31198 (GeneID 318622) | DRSC15891 | 1.59 | 3.02 | 6419 | 5900 | inactive
cuff (GeneID 36269) | DRSC06315 | 19.4 | 19 | 6362 | 7278 | inactive
Ugt49C1 (GeneID 37421) | DRSC04252 | 1.47 | 2.22 | 6449 | 6700 | active
Ugt49C1 (GeneID 37421) | DRSC27301 | 14.9 | 35.3 | 5644 | 6496 | inactive
